Results deposited as PubChem BioAssay AID1224833 (University of Georgia, 2016).
Shown is one part, drawn at random, of about 12,000 reagents. About 5,600 of them (46%) count as active. 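Active calls cover z-scores past 1 in both directions, so they include lowered as well as raised rotavirus replication.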 Unmarked entries are inactive. Reagent sequences are not shown.

Screen: 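Host factors restraining rotavirus as candidate antiviral genes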 (primary screen)
Cell system: monkey MA104 kidney cells
Knock-down reagent: siRNA pool against human genes, 50 nM
Time to read-out: 48 h knock-down before infection; read 24 h after infection
Challenge: infection with rotavirus strain RV3 two days after transfection; infectious dose for this stage not given
Measured: 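Rotavirus antigen per well by fluorescent immunoassay, normalised to non-targeting control wells on each plate and given as a standard z-score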
Scale: z-score vs non-targeting control: higher = more rotavirus replication than with non-targeting control
Call rule: In these data the active calls have z-score vs non-targeting control at about -1 or lower, or at about 1 or higher
Meaning of the calls: active = z-score beyond 1 either way; inactive = z-score within 1 of zero

Depletion of AMPD1 gave: z-score vs non-targeting control -2.63 (active).
Knock-down of DRG2 gave: z-score vs non-targeting control -0.948.
Against CD1C, the entry reads z-score vs non-targeting control -0.845.
Knock-down of LRRC10 resulted in: z-score vs non-targeting control -0.983.
Knock-down of PGLS came out at: z-score vs non-targeting control -6.02 (active).
Against ACTL6B the deposit lists z-score vs non-targeting control -1.83 (active).
With knock-down of CANT1 the results were z-score vs non-targeting control 1.89 (active).
Depletion of SLC20A2 came out at: z-score vs non-targeting control 1.33 (active).
KDELR2 gave z-score vs non-targeting control -0.803.
Against DOC2A the deposit lists z-score vs non-targeting control 1.27 (active).
For OR5T1, the values are z-score vs non-targeting control 1.35 (active).
Against DOCK4, the values are z-score vs non-targeting control 0.169.
With knock-down of LAIR1, the screen gave z-score vs non-targeting control 1.99 (active).
After knock-down of EEPD1, the record shows z-score vs non-targeting control -0.693.
After knock-down of DENND6A, the screen gave z-score vs non-targeting control -0.543.
Depletion of RRP36 resulted in: z-score vs non-targeting control -2.23 (active).
For TAS2R60, the values are z-score vs non-targeting control 0.848.
TDRD10 scored z-score vs non-targeting control -2.76 (active).
With knock-down of IFITM2 the results were z-score vs non-targeting control -1.09 (active).
C12orf42 scored z-score vs non-targeting control 0.892.
NADSYN1 gave z-score vs non-targeting control -6.81 (active).
KRTAP20-3 scored z-score vs non-targeting control 0.404.
For M6PR the deposit lists z-score vs non-targeting control -2.31 (active).
Depletion of VAC14 resulted in: z-score vs non-targeting control 0.145.
With knock-down of MTURN the results were z-score vs non-targeting control 0.716.
With knock-down of ANXA13, the record shows z-score vs non-targeting control 0.0086.
With knock-down of C8orf33 the results were z-score vs non-targeting control 1.75 (active).
With knock-down of ZNF345, the screen gave z-score vs non-targeting control -3.35 (active).
For OPN1MW, the values are z-score vs non-targeting control 1.28 (active).
For MRPL47, the values are z-score vs non-targeting control 0.225.
TXNRD3 showed z-score vs non-targeting control 0.534.
For CCNP, the entry reads z-score vs non-targeting control -0.655.
PROK2 scored z-score vs non-targeting control 1.11 (active).
Depletion of ZNF48 came out at: z-score vs non-targeting control 0.135.
FZR1 showed z-score vs non-targeting control -1.02 (active).
Against SH3TC1, the entry reads z-score vs non-targeting control -0.434.
Silencing of PDIA4 gave: z-score vs non-targeting control 1.28 (active).
For FUT9, the entry reads z-score vs non-targeting control -0.678.
For HNMT, the values are z-score vs non-targeting control -1.58 (active).
Depletion of PRDX5 resulted in: z-score vs non-targeting control 1.3 (active).
With knock-down of ZNF704, the screen gave z-score vs non-targeting control 0.209.
After knock-down of PLD3, the screen gave z-score vs non-targeting control -1.37 (active).
SQSTM1 showed z-score vs non-targeting control -0.625.
Silencing of FGF9 came out at: z-score vs non-targeting control 0.993.
Silencing of KPNA1 came out at: z-score vs non-targeting control -1.34 (active).
After knock-down of PAF1 the results were z-score vs non-targeting control 0.444.
Depletion of ANKRD46 resulted in: z-score vs non-targeting control -1.15 (active).

Sorted by “z-score vs non-targeting control” (highest first): some entries from above
OR5T1 — z-score vs non-targeting control = 1.35 (active)
SLC20A2 — z-score vs non-targeting control = 1.33 (active)
DOC2A — z-score vs non-targeting control = 1.27 (active)
KDELR2 — z-score vs non-targeting control = -0.803
